Measured values from several laboratories, pooled; numbers as filed in NIAID ChemDB.

ICn is the concentration giving n% inhibition. Percent inhibition refers to the dose given; in toxicity tests it is the harm to the cells. MIC bound comes from a single tested concentration. Blank or dashed fields: not listed here. Conditions beyond the fields shown may differ between rows.

structure,strain or isolate,protein,read by,endpoint,organism,tested at,kind,value
CC(=O)OCC1=COC(OC(=O)CC(C)(C)OC(C)=O)C2C1=CC(OC(=O)CC(C)C)C21CO1,H37Rv,,BACTEC,MIC bound,Mycobacterium tuberculosis,,culture,>12.5 µg/mL
Fc1ccc(N2CCCCC2)c(NC(=S)c2ccncc2)c1,,p70S6Kb,kinase activity,inhibition,,10 µM,host protein,48.7%
FC(F)(F)c1ccc(N2CCN(c3cncc(-c4ccoc4)n3)CC2)cc1,,UL97 kinase,,IC50,Cytomegalovirus,,target,<100 µM
NC(=O)c1ccc(=O)n([C@@H]2O[C@H](CO)[C@@H](O)[C@H]2O)c1,H37Rv,,resazurin,inhibition,Mycobacterium tuberculosis,6.25 µg/mL,culture,5%
O=C(O)c1cc2ccccc2[nH]1,H37Rv,,,MIC,Mycobacterium tuberculosis,,culture,50 µg/mL
Cc1ccccc1-c1cncc(N2CCN(c3ccncc3)CC2)n1,,UL97 kinase,,IC50,Cytomegalovirus,,target,<100 µM
CN(C)C1CCc2c(ccc3ccccc23)C1O.Cl,H37Rv,,,MIC,Mycobacterium tuberculosis,,culture,>100 µg/mL
Cc1ccc2[nH]c(=S)n(-c3ccc(S(=O)(=O)N4CCCCC4)cc3)c(=O)c2c1,H37Rv,,BACTEC,MIC bound,Mycobacterium tuberculosis,,culture,>12.5 µg/mL
Fc1ccc(-c2cncc(N3CCN(c4cccc(Cl)c4)CC3)n2)cc1Cl,,UL97 kinase,,inhibition,Cytomegalovirus,10 µM,target,>15%
CC(=O)c1cc(C(C)=O)c(CC(=O)C(=O)Nc2cccc(C)c2C)nc1CC(=O)C(=O)Nc1cccc(C)c1C,H37Rv,,BACTEC,inhibition,Mycobacterium tuberculosis,12.5 µg/mL,culture,11%
COc1cc(OC)cc(C(N)=O)c1,H37Rv,,,MIC,Mycobacterium tuberculosis,,culture,>100 µg/mL
COc1ccccc1NC(=O)CC(=O)N1N=C(C)C(N=Nc2cccc(C(=O)O)c2)C1=O,H37Rv,,BACTEC,inhibition,Mycobacterium tuberculosis,12.8 µg/mL,culture,6%
FC(F)(F)c1ccc(N2CCN(c3cncc(-c4ccc5ccccc5c4)n3)CC2)cc1,,UL97 kinase,,IC50,Cytomegalovirus,,target,<10 µM
O=C1c2cc(S(=O)(=O)[O-])c([O-])c([N+](=O)[O-])c2C(=O)c2cc(S(=O)(=O)[O-])c([O-])c([N+](=O)[O-])c21.[K+].[K+].[K+].[K+],H37Rv,,,MIC,Mycobacterium tuberculosis,,culture,>100 µg/mL
Clc1cccc(-c2cncc(N3CCN(c4ccncc4)CC3)n2)c1,,UL97 kinase,,IC50,Cytomegalovirus,,target,<1 µM
CCCCCCCCC(CCc1ccccc1)(C(=O)O)C(=O)O,H37Rv,,,MIC,Mycobacterium tuberculosis,,culture,>100 µg/mL
C=CC(/C=C/c1ccc(OC2OC(CO)C(O)C(O)C2O)cc1)c1ccc(OC2OC(CO)C(O)C(O)C2O)cc1,H37Rv,,BACTEC,inhibition,Mycobacterium tuberculosis,12.5 µg/mL,culture,11%
O=[N+]([O-])c1cc([As](=O)(O)O)ccc1Nc1ccccc1,H37Rv,,,MIC,Mycobacterium tuberculosis,,culture,>100 µg/mL
CCOC(=O)Oc1cc2c(ccn2C)c2c1c1ccccc1n2C(=O)OCC,H37Rv,,BACTEC,MIC bound,Mycobacterium tuberculosis,,culture,>12.5 µg/mL
COc1ccc(N2CCN(c3cncc(-c4cccs4)n3)CC2)cc1OC,,UL97 kinase,,IC50,Cytomegalovirus,,target,<10 µM
Cc1cc(C)c(CC(=O)c2ccc[n+](C)c2)c(C)c1.[Cl-],H37Rv,,,MIC,Mycobacterium tuberculosis,,culture,50 µg/mL